Compound potency records, mixed from different reports. Data source: NIAID ChemDB in PubChem.

Shared fields: growth or infection tests; agent: HIV-1; cells: MT-4; endpoint: EC50

Rows are shuffled and stem from different studies. ECn is the concentration giving n% inhibition of infection, replication or growth. Blank or dashed fields: not listed here.

structure,strain or isolate,mutations,method,value
N#Cc1ccc(Nc2nccc(Oc3ccc(C(=O)CC(=O)C(=O)O)cc3)n2)cc1,IIIB,Y181C,MTT,>48 µM
Nc1ccn([C@H]2CC[C@@H](CO)O2)c(=O)n1,RF,-,cytopathic effect / MTT,0.22 µM
CCOC(=O)C(=O)CC(=O)c1ccc(Oc2ccnc(Nc3ccc(C#N)cc3)n2)cc1,IIIB,F227L + V106A,MTT,>22 µM
C=C1[C@H](CO)[C@@H](O)C[C@@H]1n1cnc2c(=O)[nH]c(N)nc21,IIIB,-,MTT,0.003 µM
CC1CCCCN1CCCNCc1ccc(CNCCCN2CCOCC2)cc1,-,-,MTT,1.242 µM
C#Cc1ccc(Nc2nccc(Oc3c(C)cc(-c4cn(CC(=O)Nc5ccc(S(C)(=O)=O)cc5)nn4)cc3C)n2)cc1,IIIB,E138K,MTT,1.23 µM
O=c1[nH]cnc2c1ncn2[C@H]1CC[C@@H](CO)O1,3TC 3TC-resistant (RT M184V),RT-M184V,MTT,3.6 µg/mL
C#Cc1ccc(Nc2nccc(Oc3c(C)cc(-c4cn(Cc5ccc(S(N)(=O)=O)cc5)nn4)cc3C)n2)cc1,IIIB,-,MTT,0.029 µM
Cc1cn([C@H]2C=C[C@@H](CO)O2)c(=O)[nH]c1=O,NNRTI-resistant (RT Y181C),RT-Y181C,cytopathic effect / MTT,0.4 µM
c1ccc(CNCc2ccc(CN3CCCNCCNCCCNCC3)cc2)nc1,RF,-,cytopathic effect / MTS,0.0074 µM
Cc1cn([C@H]2C=C[C@@H](COC(=O)NCCSC(=O)OC[C@@H]3C=C[C@H](n4cc(C)c(=O)[nH]c4=O)O3)O2)c(=O)[nH]c1=O,WT,-,cytopathic effect / MTT,45 µM
Nc1ccn([C@H]2CC[C@@H](CO)O2)c(=O)n1,Clone AZT-resistant RT M41L T215Y,RT-M41L T215Y,syncytia,0.043 µM
CCOC(=O)C(=O)CC(=O)c1cccc(Oc2ccnc(Nc3ccc(C#N)cc3)n2)c1,IIIB,K103N + Y181C,MTT,>13 µM
O=c1[nH]cnc2c1ncn2[C@H]1CC[C@@H](CO)O1,IIIB 3TC (RT-M184V),RT-M184V,p24,76 µM
CCC(=O)Oc1ccc2c(C)cc(=O)oc2c1Cc1c(-c2ccccc2)[nH]c2ccccc12,-,-,MTT,>38 µM
Nc1ccn([C@H]2CC[C@@H](CO)O2)c(=O)n1,HXB2-D294 (RT-P294S),RT-P294S,RT activity,0.46 µM
O=S(=O)(O)OCC1OC2OC3C(COS(=O)(=O)O)OC(OC4C(COS(=O)(=O)O)OC(OC5C(COS(=O)(=O)O)OC(OC6C(COS(=O)(=O)O)OC(OC7C(COS(=O)(=O)O)OC(OC8C(COS(=O)(=O)O)OC(OC9C(COS(=O)(=O)O)OC(OC1C(OS(=O)(=O)O)C2OS(=O)(=O)O)C(OS(=O)(=O)O)C9OS(=O)(=O)O)C(OS(=O)(=O)O)C8OS(=O)(=O)O)C(OS(=O)(=O)O)C7OS(=O)(=O)O)C(OS(=O)(=O)O)C6OS(=O)(=O)O)C(OS(=O)(=O)O)C5OS(=O)(=O)O)C(OS(=O)(=O)O)C4OS(=O)(=O)O)C(OS(=O)(=O)O)C3OS(=O)(=O)O,NL43)(JM3100r),-,cytopathic effect / MTT,>125 µg/mL
Cc1cn([C@H]2C[C@H](N=[N+]=[N-])[C@@H](CO)O2)c(=O)[nH]c1=O,IIIB,-,MTT,0.012 µM
Cc1cn([C@H]2C[C@H](F)[C@@H](CO)O2)c(=O)[nH]c1=O,IIIB,-,RT activity,0.008 µM
CC(=O)c1ccc(C)cc1NC(C(N)=O)c1c(Cl)cccc1Cl,13MB1 (TIBO-resistant RT L100I),RT-L100I,MTT,0.007 µg/mL
C#Cc1ccc(Nc2nccc(Oc3c(C)cc(-c4cn(CCc5ccccc5)nn4)cc3C)n2)cc1,IIIB,-,MTT,0.16 µM
CC(=O)Oc1ccc2cc(Br)ccc2c1Cc1c(C)[nH]c2ccccc12,-,-,MTT,12 µM
Cc1cn([C@H]2C[C@H](N=[N+]=[N-])[C@@H](CO)O2)c(=O)[nH]c1=O,ADP141 (RT D67N K70N T215F K219Q),RT-D67N K70N T215F K219Q,MTT,0.02 µg/mL
CC(C)c1nc(CN(C)C(=O)N[C@H](C(=O)N[C@@H](Cc2ccccc2)C[C@H](O)[C@H](Cc2ccccc2)NC(=O)OCc2cncs2)C(C)C)cs1,NL4-3,PR-D30N A71V,p24,<0.01 µM
O=c1[nH]cnc2c1ncn2[C@H]1CC[C@@H](CO)O1,RF,RT-M184I,cytopathic effect / MTT,12.3 µM
C#Cc1ccc(Nc2nccc(Oc3c(C)cc(-c4cn(Cc5ccc(O)cc5)nn4)cc3C)n2)cc1,IIIB,Y188L,MTT,>2.1 µM
c1cc(CNCCCN2CCOCC2)ccc1CCNCCCN1CCOCC1,-,-,MTT,61.79 µM
CC(=O)Oc1ccc(/C=C/C(=O)O[C@@H](C(=O)O)[C@@H](OC(=O)/C=C/c2ccc(OC(C)=O)c(OC(C)=O)c2)C(=O)O)cc1OC(C)=O,IIIB,-,cytopathic effect / MTT,4 µM
CC1CCCCN1CCCCNCc1ccc(CNCCCCN2CCCCC2C)cc1,-,-,MTT,0.76 µM
CC(=O)Oc1ccc2ccccc2c1Cc1c[nH]c2ccccc12,-,-,MTT,>30 µM
O=C(Cc1ccc(CC(=O)NCCN2CCCCC2)cc1)NCCN1CCCCC1,-,-,MTT,4.82 µM
Cc1cn([C@H]2C[C@H](N=[N+]=[N-])[C@@H](CO)O2)c(=O)[nH]c1=O,NL4-3,-,cytopathic effect / MTS,0.0052 µM
C[C@@H]1[C@H](O)[C@@H](CO)O[C@H]1n1ccc(N)nc1=O,-,-,MTT,>100 µM
C#Cc1ccc(Nc2nccc(Oc3c(C)cc(-c4cn(Cc5ccc([N+](=O)[O-])cc5)nn4)cc3C)n2)cc1,IIIB,F227L and V106A,MTT,33.83 µM
Cc1cn([C@H]2C[C@H](N=[N+]=[N-])[C@@H](COC(=O)NCCSC(=O)OC[C@H]3O[C@@H](n4cc(C)c(=O)[nH]c4=O)C[C@@H]3N=[N+]=[N-])O2)c(=O)[nH]c1=O,WT,-,cytopathic effect / MTT,5 µM

A second listing of 4 rows from above:

structure,strain or isolate,mutations,method,value
CCC(=O)Oc1ccc2c(C)cc(=O)oc2c1Cc1c(-c2ccccc2)[nH]c2ccccc12,-,-,MTT,>38 µM
CCOC(=O)C(=O)CC(=O)c1ccc(Oc2ccnc(Nc3ccc(C#N)cc3)n2)cc1,IIIB,F227L + V106A,MTT,>22 µM
C#Cc1ccc(Nc2nccc(Oc3c(C)cc(-c4cn(CC(=O)Nc5ccc(S(C)(=O)=O)cc5)nn4)cc3C)n2)cc1,IIIB,E138K,MTT,1.23 µM
C[C@@H]1[C@H](O)[C@@H](CO)O[C@H]1n1ccc(N)nc1=O,-,-,MTT,>100 µM